Assay results: US20260124192A1, “COMPOUNDS, COMPOSITIONS, AND METHODS OF TREATING RNA VIRAL INFECTIONS” (priority 2024, published 2026)

Key:
Assay type in all cases: cell-based
[1] = system: SARS-CoV-2 Beta (B.1.351); experiment: SARS-CoV-2 IF assay, HeLa-ACE2 (Method 1); settings: 2% FBS, corrected to 1/4 the apparent value
[2] = system: SARS-CoV-2 Alpha (B.1.1.7); experiment: SARS-CoV-2 IF assay, HeLa-ACE2 (Method 1); settings: 2% FBS, corrected to 1/4 the apparent value
Norwalk Virus = experiment: Norwalk virus CPE assay, HG23 (Method 6); settings: Norovirus Norwalk Virus, 2% FBS, @ 1.25 μM (concentration corrected to 1/4)

## Cc1c(-c2ccc(O)cc2)n(Cc2ccc(OCCN3CCCCC3)cc2)c2ccc(O)cc12 [Pipendoxifene]
[1]; SARS-CoV-2 Beta (B.1.351)
  EC50: 167 nM
[1]; Severe acute respiratory syndrome coronavirus 2, HeLa-ACE2, SARS-CoV-2 Beta (B.1.351)
  EC50: 263 nM
[2]; SARS-CoV-2 Alpha (B.1.1.7)
  EC50: 299 nM
[2]; Severe acute respiratory syndrome coronavirus 2, HeLa-ACE2, SARS-CoV-2 Alpha (B.1.1.7)
  EC50: 208 nM
Norwalk Virus
  percent effect printed in column Corrected EC50 (μM): 31% @ 1.25
